Pooled drug test results. Numbers come from NIAID ChemDB, via PubChem.

Common to all: whole-cell or culture tests; agent: Herpes simplex virus 2; method: plaque count; endpoint: EC50

ECn is the concentration giving n% inhibition of infection, replication or growth. Neighbouring rows are from separate reports.

{"structure": "Nc1nc2c(ncn2CC[C@H](O)CO)c(=O)[nH]1", "cells": "SIRC", "strain": "91075", "result": "13 µM"}
{"structure": "Cc1cn([C@@H]2O[C@H](CO)[C@@H](O)[C@@H]2F)c(=O)[nH]c1=O", "cells": "VERO", "strain": "G", "result": "0.8 µM"}
{"structure": "CCCCCCCC/C=C\\CCCCCCCOCCOP1(=O)CO[C@@H](Cn2ccc(N)nc2=O)CO1", "cells": "HFF", "strain": "G", "result": "0.04 µM"}
{"structure": "CC(=O)OCCOCn1c(-c2ccccc2)c(-c2ccccc2)c([N+](=O)[O-])c1-c1ccccc1", "cells": "VERO", "result": ">300 µM"}
{"structure": "O=C(O)P(=O)(O)O", "cells": "GMK", "strain": "P", "result": "88.3 µM"}
{"structure": "O=C(O)CP(=O)(O)O", "cells": "MEF", "strain": "E-196", "result": "13.1 µg/mL"}
{"structure": "Nc1nc2c(ncn2COCCO)c(=O)[nH]1", "cells": "HELF", "strain": "HG-52", "result": "0.03 µg/mL"}
{"structure": "COCc1cn([C@H]2C[C@H](O)[C@@H](CO)O2)c(=O)nc1N", "cells": "VERO", "strain": "333", "result": "175 µM"}
{"structure": "Nc1nc2c(ncn2COCCO)c(=O)[nH]1", "cells": "HEL", "strain": "91075", "result": "0.4 µM"}
{"structure": "CCOC(=O)c1c(Br)c(-c2ccccc2)n(COCCOC(C)=O)c1-c1ccccc1", "cells": "VERO", "result": ">47 µM"}
{"structure": "Nc1nc2c(ncn2CCCC(CO)CO)c(=O)[nH]1", "cells": "HEL", "strain": "91075", "result": "5.1 µM"}
{"structure": "O=C(NCc1ccc(Cl)cc1)c1cn2c3c(cc(CN4CCOCC4)cc3c1=O)OC(c1cccnc1)C2", "cells": "HFF", "strain": "X-79 (WILD TYPE)", "result": ">13.2 µM"}
{"structure": "Nc1ccn(C[C@@H](CO)OCP(=O)(O)O)c(=O)n1", "cells": "HFF", "strain": "X-79", "result": "2.2 µg/mL"}
{"structure": "O=c1ccn([C@@H]2O[C@H](CO)[C@@H](O)[C@@H]2F)c(=O)[nH]1", "cells": "VERO", "strain": "G-FMAU-C1", "result": ">40 µM"}
{"structure": "CCCCCCCCCCCCCCCCCOC[C@H](COP1(=O)CO[C@@H](Cn2ccc(N)nc2=O)CO1)OCc1ccccc1", "cells": "HFF", "strain": "SR", "result": ">1 µM"}
{"structure": "[N-]=[N+]=Nc1c(-c2ccccc2)c(-c2ccccc2)n(COCCO)c1-c1ccccc1", "cells": "VERO", "result": ">65 µM"}
{"structure": "Nc1ncnc2c1ncn2[C@@H]1O[C@H](CO)[C@@H](O)[C@@H]1O", "cells": "MEF", "strain": "MS", "result": "57 µM"}
{"structure": "Nc1nc(=O)n([C@@H]2O[C@H](CO)[C@@H](O)[C@@H]2F)cc1I", "cells": "VERO", "strain": "Lovelace MS", "result": "0.9 µM"}
{"structure": "O=c1[nH]c(=O)n([C@@H]2O[C@H](CO)[C@@H](O)[C@@H]2F)cc1I", "cells": "VERO", "strain": "G", "result": "0.009 µM"}
{"structure": "CCCCc1ccc2cc(-c3ccccc3)cn2c1", "cells": "VERO", "strain": "186", "result": ">100 µM"}
{"structure": "Nc1ncnc2c1ncn2[C@@H]1O[C@H](COP(=O)(O)O)[C@@H](O)[C@@H]1O", "cells": "MEF", "strain": "Clinical isolate HEETER", "result": "20 µM"}
{"structure": "COC(=O)[C@]1(C)CCC[C@]2(C)c3ccc4[nH]c(C)nc4c3CCC12", "cells": "E6SM", "result": ">4 µg/mL"}
{"structure": "Nc1nc(=O)n([C@@H]2O[C@H](CO)[C@@H](O)[C@@H]2F)cc1I", "cells": "VERO", "strain": "G-FMAU-C1", "result": "18 µM"}
{"structure": "O=[N+]([O-])c1cc(-c2ccccc2)n(COCCO)c1-c1ccccc1", "cells": "VERO", "result": ">46 µM"}
{"structure": "Nc1ccn(C[C@@H](CO)OCP(=O)(O)O)c(=O)n1", "cells": "MRC-5", "strain": "MS (WILD TYPE)", "result": "9.1 µM"}
{"structure": "CCCCCCCCCCCCOCCCOP1(=O)CO[C@@H](Cn2ccc(N)nc2=O)CO1", "cells": "HFF", "strain": "SR", "result": ">1 µM"}
{"structure": "COC(=O)c1ccc2cc(-c3ccccc3)cn2c1", "cells": "VERO", "strain": "186", "result": ">100 µM"}
{"structure": "Nc1nc2c(ncn2COCCO)c(=O)[nH]1", "cells": "MRC-5", "strain": "G", "result": "0.3 µg/mL"}
{"structure": "OCCOCn1c(-c2ccccc2)c(Br)c(-c2ccccc2)c1-c1ccccc1", "cells": "VERO", "result": ">15 µM"}
{"structure": "Brc1ccc(-c2cc3ccccn3c2)cc1", "cells": "VERO", "strain": "186", "result": ">100 µM"}
{"structure": "O=C(O)P(=O)(O)O", "cells": "VERO", "strain": "G-FIAU-C1", "result": "19 µM"}
{"structure": "O=c1[nH]c(=O)n([C@@H]2O[C@H](CO)[C@@H](O)[C@@H]2O)cc1/C=C/Cl", "cells": "HELF", "strain": "UW-268", "result": "8.4 µg/mL"}
{"structure": "Nc1ccn(C[C@H]2COP(=O)(O)CO2)c(=O)n1", "cells": "HFF", "strain": "G", "result": "17.6 µM"}
{"structure": "CC(=O)OCCOCn1c(-c2ccccc2)c(C#N)c([N+](=O)[O-])c1-c1ccccc1", "cells": "VERO", "result": ">300 µM"}
{"structure": "CC(=O)c1ccc2cc(-c3ccccc3)cn2c1", "cells": "VERO", "strain": "186", "result": ">100 µM"}
{"structure": "Nc1nc2c(ncn2C[C@]2(CO)C[C@H]2CO)c(=O)[nH]1", "cells": "MRC-5", "strain": "186", "result": "0.12 µg/mL"}
{"structure": "Nc1nc2c(ncn2COCCO)c(=O)[nH]1", "cells": "VERO", "strain": "333", "result": "0.6 µM"}
{"structure": "Nc1nc2c(ncn2CC(CO)CCO)c(=O)[nH]1", "cells": "BHK", "strain": "91075", "result": "1.1 µM"}
{"structure": "COC(=O)[C@]1(C)CCC[C@]2(C)c3cc(Br)c4nc[nH]c4c3CCC12", "cells": "E6SM", "result": ">4 µg/mL"}
{"structure": "CCCCCCCC/C=C\\CCCCCCCOCCCOP1(=O)CO[C@@H](Cn2ccc(N)nc2=O)CO1", "cells": "HFF", "strain": "SR", "result": ">1 µM"}
{"structure": "Cn1cc(C(=O)NCc2ccc(Cl)cc2)c(=O)c2cc(CN3CCOCC3)ccc21", "cells": "HFF", "strain": "11361 (ACV-resistant)", "result": "3.7 µM"}
{"structure": "O=c1[nH]c(=O)n([C@H]2C[C@H](O)[C@@H](CO)O2)cc1/C=C/Br", "cells": "VERO", "strain": "MS-M1", "result": "5.9 µM"}
{"structure": "N#Cc1c([N+](=O)[O-])c(-c2ccccc2)n(COCCO)c1-c1ccccc1", "cells": "VERO", "result": ">300 µM"}
{"structure": "CCCCCCCC/C=C\\CCCCCCCOCCCOP(=O)(O)CO[C@H](CO)Cn1ccc(N)nc1=O", "cells": "HFF", "strain": "MS", "result": "0.007 µM"}
{"structure": "O=c1[nH]c(=O)n([C@H]2C[C@H](O)[C@@H](CO)O2)cc1/C=C/Br", "cells": "HELF", "strain": "MS", "result": "10.8 µg/mL"}
{"structure": "Cc1cn([C@@H]2O[C@H](CO)[C@H]2CO)c(=O)[nH]c1=O", "cells": "HFF", "strain": "G", "result": "0.88 µg/mL"}
{"structure": "Nc1ncnc2c1ncn2[C@@H]1O[C@H](CO)[C@@H](O)[C@@H]1O", "cells": "VERO", "strain": "MS-M1", "result": "18.2 µM"}
{"structure": "COc1ccc2nc3n[nH]c(C)c3c(Cl)c2c1", "cells": "FS-85", "result": "0.9 µg/mL"}
{"structure": "Cn1cc(C(=O)NCc2ccc(Cl)cc2)c(=O)c2cc(CN3CCOCC3)ccc21", "cells": "VERO", "strain": "MS", "result": "1.3 µM"}
{"structure": "COC(=O)[C@]1(C)CCC[C@]2(C)c3ccc4nc5c(nc4c3CCC12)CCCC5", "cells": "E6SM", "result": ">4 µg/mL"}
{"structure": "Cc1cn([C@@H]2O[C@H](CO)[C@@H](O)[C@@H]2O)c(=O)[nH]c1=O", "cells": "HELF", "strain": "MS", "result": "0.22 µg/mL"}
{"structure": "COC(=O)[C@]1(C)CCC[C@]2(C)c3ccc4[nH]cnc4c3CCC12", "cells": "E6SM", "result": ">4 µg/mL"}
{"structure": "Nc1ncnc2c1ncn2[C@@H]1C[C@H](CO)[C@@H](O)[C@@H]1O", "cells": "VERO", "strain": "G", "result": "50 µM"}

Repeating the final 5 entries:

{"structure": "Cn1cc(C(=O)NCc2ccc(Cl)cc2)c(=O)c2cc(CN3CCOCC3)ccc21", "cells": "VERO", "strain": "MS", "result": "1.3 µM"}
{"structure": "COC(=O)[C@]1(C)CCC[C@]2(C)c3ccc4nc5c(nc4c3CCC12)CCCC5", "cells": "E6SM", "result": ">4 µg/mL"}
{"structure": "Cc1cn([C@@H]2O[C@H](CO)[C@@H](O)[C@@H]2O)c(=O)[nH]c1=O", "cells": "HELF", "strain": "MS", "result": "0.22 µg/mL"}
{"structure": "COC(=O)[C@]1(C)CCC[C@]2(C)c3ccc4[nH]cnc4c3CCC12", "cells": "E6SM", "result": ">4 µg/mL"}
{"structure": "Nc1ncnc2c1ncn2[C@@H]1C[C@H](CO)[C@@H](O)[C@@H]1O", "cells": "VERO", "strain": "G", "result": "50 µM"}